# Source: PMC10187092 (Emerging Microbes & Infections, 2023)
# Biological target: SARS-CoV-2 3CLpro (wild-type) (Severe acute respiratory syndrome coronavirus 2, UniProt P0DTD1)
substance,measurement,value
PF-00835231,signal of low concentrations randomly interpolated in screening,noticeable positive signal
